1 compound from ChEMBL document CHEMBL3098120, “Synthesis and analysis of activity of a potential anti-melanoma prodrug with a hydrazine linker” (Eur J Med Chem, 2014) can be followed below.

This assay relates to B16-F10. The experiment in a line: Antitumor activity against mouse B16F10 cells […] in C57BL/6 mouse assessed as reduction of tumor size at 100 ug administered as intratumorally for 3 days. In kind it is functional, cell-based.

Active and inactive are the calls of the source. No cut-off for these calls is given here.

As to `O=C(O)c1ccc(N(CCCl)CCCl)cc1`, the outcome was Active.
